Taken from: PubChem BioAssay AID624099 (ICCB-Longwood, 2012)
Assay: 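Knock-downs relieving repression by E2 of an HPV18 LCR luciferase reporter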 (primary screen). Cell system: human C33A cervical carcinoma cells (HPV-negative) stably expressing BPV1 E2 and an HPV18 LCR luciferase reporter. Reagents: siRNA pool against human genes, 40 nM. Duration: 72 h. Measurement: 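HPV18 LCR reporter light per well, converted to plate-wise z-scores that exclude control wells, and averaged over triplicate plates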. Reading the numbers: mean z-score and z-score: higher = stronger reporter signal, weaker E2 silencing. Active means: 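Mean z ≥ 2 together with z ≥ 2 in two or more of the three replicates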.
The whole screen tested about 21,000 reagents; shown is an unselected part. 497 of them (2.4%) were called active. 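Higher z means weaker E2 silencing; only reporter increases were scored, and knock-downs that hurt cell survival may mask genuine repressor factors.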 No sequences are given here.

target gene | PubChem SID | mean z-score | z-score, replicate A | z-score, replicate B | z-score, replicate C | Call
PPP1R35 | SID134320183 | -0.15 | -0.7 | -0.06 | 0.3 | inactive
ALAS2 | SID134313456 | -1.18 | -0.74 | -1.46 | -1.32 | inactive
DUSP12 | SID134312822 | -0.5 | -0.52 | -0.64 | -0.35 | inactive
SLC4A1AP | SID134324698 | -1.59 | -1.61 | -1.51 | -1.66 | inactive
DEFB103B | SID134317240 | 0.58 | 0.21 | 0.73 | 0.81 | inactive
DHDDS | SID134314969 | -1.21 | -1.33 | -1.18 | -1.14 | inactive
SCAMP3 | SID134317667 | -0.8 | -1.1 | -0.75 | -0.54 | inactive
OPN5 | SID134326275 | -1.63 | -1.39 | -1.81 | -1.68 | inactive
IGKV1OR2-118 | SID134325531 | 0.01 | -0.02 | 0.21 | -0.17 | inactive
GPIHBP1 | SID134322314 | -1.89 | -1.95 | -1.69 | -2.01 | inactive
FAM90A15 | SID134327983 | 0.21 | 0.38 | -0.07 | 0.31 | inactive
ST3GAL6 | SID134321906 | 0.82 | 0.57 | 0.9 | 0.98 | inactive
CLDN2 | SID134324425 | 0.93 | 0.91 | 0.82 | 1.07 | inactive
KRTCAP3 | SID134321668 | 0.02 | 0.1 | 0.15 | -0.2 | inactive
UCKL1 | SID56479152 | -1.72 | -1.86 | -1.9 | -1.42 | inactive
PSG2 | SID134318804 | 1.01 | 0.96 | 1.04 | 1.04 | inactive
SLC4A9 | SID134312634 | -0.93 | -0.79 | -0.74 | -1.25 | inactive
AHNAK2 | SID134325257 | 2.19 | 2.48 | 2.02 | 2.06 | active
KRTAP4-9 | SID134328783 | -0.66 | -0.45 | -0.91 | -0.63 | inactive
GLIPR1L2 | SID134320602 | 0.23 | 0.47 | 0.07 | 0.16 | inactive
TENT2 | SID134322357 | -0.47 | -0.81 | -0.45 | -0.15 | inactive
LINC00315 | SID134320966 | -0.8 | -0.81 | -0.8 | -0.79 | inactive
NPR3 | SID134312981 | -0.2 | -0.06 | -0.21 | -0.34 | inactive
NPR3 | SID134322284 | 0.2 | 0.23 | -0.01 | 0.37 | inactive
CFAP410 | SID134323671 | 0.21 | 0.49 | 0.14 | -0.01 | inactive
GTF2F2 | SID134315285 | -0.35 | -0.55 | -0.36 | -0.16 | inactive
SSB | SID134312022 | -0.52 | -0.35 | -0.46 | -0.74 | inactive
COQ8A | SID134310678 | 2.62 | 2.74 | 2.64 | 2.47 | active
LOC400496 (retired record) | SID134328684 | 0.51 | 0.63 | 0.58 | 0.32 | inactive
HTR1E | SID134311075 | -1.05 | -0.84 | -1.13 | -1.19 | inactive
PPP2R1B | SID134321521 | -0.99 | -1.01 | -0.8 | -1.16 | inactive
CNBD1 | SID134322355 | -1.22 | -1.5 | -1 | -1.17 | inactive
CTNNA2 | SID134323651 | 0.2 | 0.06 | 0.02 | 0.52 | inactive
SNAI3-AS1 | SID134328674 | 0.51 | 0.72 | 0.2 | 0.6 | inactive
CHMP6 | SID134310720 | 0.82 | 1.19 | 0.78 | 0.49 | inactive
MMACHC | SID134325170 | -1.07 | -0.94 | -1.27 | -1.01 | inactive
C14orf93 | SID134318180 | -1.13 | -0.61 | -1.25 | -1.52 | inactive
HOXC8 | SID134317237 | -0.54 | -0.7 | -0.24 | -0.69 | inactive
DNAJC10 | SID134317961 | 0.15 | 0.18 | 0.31 | -0.04 | inactive
DHRS9 | SID134314153 | -1.12 | -1.08 | -1 | -1.29 | inactive
ELMOD3 | SID134320931 | -1.04 | -0.81 | -1.3 | -1.02 | inactive
OTOS | SID134320463 | -0.04 | -0.07 | 0.01 | -0.08 | inactive
LOC402523 (retired record) | SID134327871 | 0.54 | 0.76 | 0.39 | 0.45 | inactive
GHSR | SID134310956 | -0.43 | -0.09 | -0.69 | -0.51 | inactive
ALG1L9P | SID134325759 | 0.77 | 0.3 | 1.03 | 0.97 | inactive
LOC388716 (retired record) | SID134327025 | -0.83 | -0.32 | -1.07 | -1.09 | inactive
TLR3 | SID56479199 | 0.26 | 0.17 | 0.42 | 0.19 | inactive
IDH3B | SID134314327 | 0.43 | 0.96 | 0.11 | 0.21 | inactive
LOC283034 (retired record) | SID134326524 | -0.34 | -0.36 | -0.67 | 0.02 | inactive
ITM2C | SID134322425 | 1.27 | 1.41 | 1.38 | 1.04 | inactive
TWSG1 | SID134320711 | 2.38 | 2.69 | 2.32 | 2.13 | active
LZTS3 | SID134317661 | -0.9 | -0.79 | -0.98 | -0.94 | inactive
UCN2 | SID134322052 | -0.42 | -0.3 | -0.61 | -0.35 | inactive
TPI1P2 | SID134329273 | -0.31 | -0.45 | -0.31 | -0.17 | inactive
CEBPD | SID134314986 | -1.06 | -1.39 | -1.14 | -0.65 | inactive
CCDC196 | SID134329850 | 0.21 | -0.2 | 0.2 | 0.64 | inactive
SERPINB6 | SID134321622 | -0.02 | 0.45 | -0.6 | 0.1 | inactive

Limited to “z-score, replicate A”, for 3 of the entries above:
DEFB103B [SID134317240] = 0.21
DHDDS [SID134314969] = -1.33
SCAMP3 [SID134317667] = -1.1
